Anti-infective test results gathered from many reports (values: NIAID ChemDB through PubChem).

Shared fields: tests on isolated targets; agent: Herpes simplex virus 1; target: DNA polymerase

Inhibition is in % at the dose shown (toxicity tests: loss of growth or viability). Lines come from different laboratories, so protocols vary. Blank or dashed fields: not listed here. ICn: concentration for n% inhibition.

compound,read-out,tested at,result
O=C(P(=O)(O)O)P(=O)(O)O,IC50,-,10 µM
COC(=O)[C@@H]1[C@H](O)[C@H](C)C(O)[C@H](C)/C=C\C=C(/C)C(=O)Nc2c(C)c(OC(C)=O)c3c(c2O)C(=O)C(C)=C2OCOC(=C23)/C(C)=C/[C@@](C)(O)[C@H](O)[C@@H](C)[C@H]1OC(C)=O,IC50,-,110 µM
O=C(O)C(F)(F)P(=O)(O)O,inhibition,100 µM,62%
Cc1ccc(OP(=O)(O)C(=O)O)cc1,IC50,-,35 µM
O=P(O)(O)C(Cl)(Br)P(=O)(O)O,IC50,-,>100 µM
O=C(CP(=O)(O)O)OC1CCCCC1,IC50,-,49 µg/mL
O=C(O)CCP(=O)(O)O,IC50,-,>500 µM
CP(=O)(O)CC(=O)O,IC50,-,145 µg/mL
O=P(O)(O)C(Br)P(=O)(O)O,IC50,-,>100 µM
O=P(O)(O)P(=O)(O)O,IC50,-,150 µM
O=C(O)C(Cl)(Cl)P(=O)(O)O,inhibition,100 µM,0%
COP(=O)(O)CC(=O)O,IC50,-,19.9 µg/mL
O=P(O)(O)C(O)P(=O)(O)O,IC50,-,120 µM
CC(Br)(C(=O)O)P(=O)(O)O,IC50,-,>100 µM
CCCCCCOP(=O)(O)CC(=O)O,IC50,-,~166 µg/mL

The last 2 rows once more:

compound,read-out,tested at,result
CC(Br)(C(=O)O)P(=O)(O)O,IC50,-,>100 µM
CCCCCCOP(=O)(O)CC(=O)O,IC50,-,~166 µg/mL